In the data set the test system is IgG in human sera from Colombian cohorts. Kind of data set: Indirect ELISA, seroreactivity of human sera (IgG) to peptides. Format: binding. As to conditions: for Frequency of antibodies to SD1CLIPS: sera 1:200; for Frequency of seroreactivity to CRP1: sera 1/400. In general terms: ELISA stands for enzyme-linked immunosorbent assay.

Take “C(T2-013)NYKRKRRERDWDCNTKKDVCIPDRRYQLC(T2-013)K(Aoa) (sidechain bridge or staple) [SD1CLIPS, reference compound]”: the “Frequency of antibodies to SD1CLIPS” value runs as follows: (VAR2CSA-seropositive non-pregnant population (34/67)) 50.7%; (VAR2CSA-seropositive non-pregnant population (44/70)) 62.8%; (VAR2CSA-seropositive pregnant women (30/56)) 53.6%.

Take “KKYISEKKQEWDKQKTKYENKYVGKSASDLLKEN [CRP1]”: the “Frequency of seroreactivity to CRP1” value by setting is: (VAR2CSA-seropositive men and children, Tierralta (40/70)) 57%; (VAR2CSA-seropositive non-pregnant cohort, Puerto Libertador (34/67), cut-off mean AU + 2 SD of 12 unexposed Colombians) 50.7%; (VAR2CSA-seropositive pregnant women, Puerto Libertador (26/56)) 46%; (negative control sera, Medellín, no exposure to malaria (one of 12, low reactivity)) 8.3%.

For the origin of these results see PMC10312377, “A conserved epitope in VAR2CSA is targeted by a cross-reactive antibody originating from Plasmodium vivax Duffy binding protein” (Frontiers in Cellular and Infection Microbiology, 2023).
